Anti-infective test results gathered from many reports (values: NIAID ChemDB through PubChem).

Shared fields: tests in culture; species: Hepatitis C virus; measure: EC50

ECn is the concentration giving n% inhibition of infection, replication or growth. a–b is a range or a potency band. Lines come from different laboratories, so protocols vary.

CC1=C(C(=O)O[C@H](C)c2ccccc2)CNC(=S)N1 ; method: ELISA ; cells: Huh7 ; value: 1–10 µM
CCOc1cc2c(C(=O)NC)c(-c3ccc(F)cc3)oc2cc1N1CCOCC1 ; method: replicon ; cells: Huh7 ; value: <10 µM
COC(=O)N[C@H](C(=O)N1CCC[C@H]1c1ncc(-c2ccc(-c3ccc(-c4cnc([C@@H]5CCCN5C(=O)[C@@H](NC(=O)OC)C(C)C)[nH]4)cc3)cc2)[nH]1)C(C)C ; strain or isolate: 1a ; method: luciferase ; changes: Y93C ; cells: Lunet ; value: 0.00504 µM
CNC(=O)c1c(-c2ccc(F)cc2)oc2cc(N(C)S(C)(=O)=O)c(OCc3csc(C)n3)cc12 ; method: replicon ; cells: Huh7 ; value: <1 µM
COC(=O)OC(c1oc(=O)oc1C)C1NC(=S)NC(C)=C1C(=O)OCCc1cccc(Cl)c1 ; method: ELISA ; cells: Huh7 ; value: <1 µM
CNC(=O)c1c(-c2ccco2)oc2ccc(OC)cc12 ; method: replicon ; cells: Huh7 ; value: <30 µM
C[C@H](CCC(=O)C(C)(C)O)[C@H]1CC[C@@]2(C)[C@@H]3CC[C@H]4C(C)(C)[C@H](O)CC[C@]4(C)C3=CC[C@]12C ; strain or isolate: Jc1 ; method: ATP ; cells: n4mBid cells ; value: >100 µM
CCCCn1c(=O)c2cc(OC)ccc2c2cc(C(O)(C(F)(F)F)C(F)(F)F)c3c(c21)OCO3 ; strain or isolate: 1b ; method: PCR ; cells: #50-1 ; value: 0.25 µM
CC1(C)CC(=O)C2=C(C1)Nc1c(O)cccc1N(C(=O)CS(=O)(=O)c1ccccc1)C2c1ccc(OCc2ccccc2)cc1F ; strain or isolate: 1b ; method: luciferase / reporter gene / replicon ; value: 1.19 µM
C=C1CC[C@@](C)([C@H](C)CC(=O)O)[C@@]12CCC1=C2CC[C@H]2C(C)(C)C(=O)CC[C@]12C ; strain or isolate: Jc1 ; method: ATP ; cells: n4mBid cells ; value: >100 µM
CC1(C)CC(=O)C2=C(C1)Nc1c(O)cccc1N(C(=O)CCC(=O)N1CCC3(CC1)OCCO3)C2c1ccc(OCc2ccccc2)cc1Cl ; strain or isolate: 1b ; method: luciferase / reporter gene / replicon ; value: 7.15 µM
CCO[C@H](c1ccc(O)cc1)[C@@H](O)CO ; strain or isolate: Jc1 ; method: ATP ; cells: n4mBid cells ; value: >100 µM
C=C(Cl)COC(=O)C1=C(C)NC(=S)NC1 ; method: ELISA ; cells: Huh7 ; value: <1 µM
CC(=O)N1c2cccc(O)c2NC2=C(C(=O)CC(C)(C)C2)C1c1cncn1C ; strain or isolate: 1b ; method: luciferase / reporter gene / replicon ; value: >100 µM
CNC(=O)c1c(-c2ccc(F)cc2)oc2cc(C(C)=O)c(C)cc12 ; method: replicon ; cells: Huh7 ; value: <10 µM
CC(=O)O[C@H]1CC[C@]2(C)C3=CC[C@]4(C)[C@@H]([C@H](C)CC[C@H](O)C(C)(C)O)CC[C@@]4(C)[C@@H]3CC[C@H]2C1(C)C ; strain or isolate: Jc1 ; method: ATP ; cells: n4mBid cells ; value: >100 µM
COC(=O)/C=C/c1ccc(NC(=O)C2(NC(=O)c3ccc4c(C5CCCCC5)c5n(c4c3)C[C@@H](O)[C@@H](O)c3ccccc3-5)CCCC2)cc1 ; method: replicon ; cells: Huh7 ; value: 0.01–1 µM
CC1=C(C(=O)OCCc2cccc(Cl)c2)C(COC(=O)CCN(C)C)NC(=S)N1 ; method: ELISA ; cells: Huh7 ; value: <1 µM
COC(=O)c1ccc2c(C3CCCCC3)c3n(c2c1)CCOc1cc(OCc2cc(C(=O)OC(C)(C)C)ccc2Br)ccc1-3 ; method: replicon ; cells: Huh7 ; value: 0.01–1 µM
CC1(C)CC(=O)C2=C(C1)Nc1c(O)cccc1N(C(=O)c1ccco1)[C@H]2c1ccc(OCc2ccccc2)cc1F ; strain or isolate: 1b ; method: luciferase / reporter gene / replicon ; value: 1.28 µM
CNC(=O)c1c(-c2ccc(F)cc2)oc2cc(N3CCOCC3)c(OC(C)c3nccs3)cc12 ; method: replicon ; cells: Huh7 ; value: <1 µM
CC1(C)CC(=O)C2=C(C1)Nc1c(O)cccc1N(C(=O)CCC(=O)N1CCCc3ccccc31)C2c1ccc(OCc2ccccc2)cc1Cl ; strain or isolate: 1b ; method: luciferase / reporter gene / replicon ; value: 3.18 µM
O=C(O)c1ccc2c(C3CCCCC3)c3n(c2c1)CC(C(=O)O)Cc1ccccc1-3 ; method: replicon ; cells: Huh7 ; value: >10 µM
CC1(C)CC(=O)C2=C(C1)Nc1c(O)cccc1N(C(=O)c1cscn1)[C@H]2c1ccc(OCc2ccccc2)cc1F ; strain or isolate: 1b ; method: luciferase / reporter gene / replicon ; value: 0.71 µM
CNC(=O)c1c(-c2ccc(F)cc2)oc2cc(N3CC(C)OC(C)C3)c(OC(C)C)cc12 ; method: replicon ; cells: Huh7 ; value: <10 µM
CC1=C(C(=O)OCCSc2nc3ccccc3s2)CNC(=S)N1 ; method: ELISA ; cells: Huh7 ; value: 1–10 µM
CNC(=O)c1c(-c2ccc(F)cc2)oc2cc(N(C)S(C)(=O)=O)c(OCc3ccc4c(c3)OC(C)(C)OC4=O)cc12 ; method: replicon ; cells: Huh7 ; value: <1 µM
CC1=C(C(=O)OCCc2cccc([N+](=O)[O-])c2)C(COC(=O)OCC2COC(C)(C)O2)NC(=S)N1 ; method: ELISA ; cells: Huh7 ; value: <1 µM
CC(=O)N1c2cccc(O)c2NC2=C(C(=O)CC(C)(C)C2)C1c1ccc(OCc2cccnc2)cc1Cl ; strain or isolate: 1b ; method: luciferase / reporter gene / replicon ; value: 13.93 µM
CC1=C(C(=O)OCn2nnc3ccccc32)CNC(=S)N1 ; method: ELISA ; cells: Huh7 ; value: <1 µM
O=C(O)/C=C/c1ccc(NCC2(NC(=O)c3ccc4c(C5CCCCC5)c5n(c4c3)CC(C(=O)N3CCCCC3)Cc3ccccc3-5)CCCC2)cc1 ; method: replicon ; cells: Huh7 ; value: 0.01–1 µM

For reference, 3 entries again:

{"smiles": "CC1=C(C(=O)OCn2nnc3ccccc32)CNC(=S)N1", "method": "ELISA", "cells": "Huh7", "value": "<1 µM"}
{"smiles": "CC1=C(C(=O)OCCc2cccc([N+](=O)[O-])c2)C(COC(=O)OCC2COC(C)(C)O2)NC(=S)N1", "method": "ELISA", "cells": "Huh7", "value": "<1 µM"}
{"smiles": "COC(=O)/C=C/c1ccc(NC(=O)C2(NC(=O)c3ccc4c(C5CCCCC5)c5n(c4c3)C[C@@H](O)[C@@H](O)c3ccccc3-5)CCCC2)cc1", "method": "replicon", "cells": "Huh7", "value": "0.01–1 µM"}